The text below walks through data of patent publication US10414808B2 (priority 2012, dated 2019).

Sequences of proteins named here, by UniProt entry; tags and fusion partners are left off.
UniProt Q99250, whole entry, looked up: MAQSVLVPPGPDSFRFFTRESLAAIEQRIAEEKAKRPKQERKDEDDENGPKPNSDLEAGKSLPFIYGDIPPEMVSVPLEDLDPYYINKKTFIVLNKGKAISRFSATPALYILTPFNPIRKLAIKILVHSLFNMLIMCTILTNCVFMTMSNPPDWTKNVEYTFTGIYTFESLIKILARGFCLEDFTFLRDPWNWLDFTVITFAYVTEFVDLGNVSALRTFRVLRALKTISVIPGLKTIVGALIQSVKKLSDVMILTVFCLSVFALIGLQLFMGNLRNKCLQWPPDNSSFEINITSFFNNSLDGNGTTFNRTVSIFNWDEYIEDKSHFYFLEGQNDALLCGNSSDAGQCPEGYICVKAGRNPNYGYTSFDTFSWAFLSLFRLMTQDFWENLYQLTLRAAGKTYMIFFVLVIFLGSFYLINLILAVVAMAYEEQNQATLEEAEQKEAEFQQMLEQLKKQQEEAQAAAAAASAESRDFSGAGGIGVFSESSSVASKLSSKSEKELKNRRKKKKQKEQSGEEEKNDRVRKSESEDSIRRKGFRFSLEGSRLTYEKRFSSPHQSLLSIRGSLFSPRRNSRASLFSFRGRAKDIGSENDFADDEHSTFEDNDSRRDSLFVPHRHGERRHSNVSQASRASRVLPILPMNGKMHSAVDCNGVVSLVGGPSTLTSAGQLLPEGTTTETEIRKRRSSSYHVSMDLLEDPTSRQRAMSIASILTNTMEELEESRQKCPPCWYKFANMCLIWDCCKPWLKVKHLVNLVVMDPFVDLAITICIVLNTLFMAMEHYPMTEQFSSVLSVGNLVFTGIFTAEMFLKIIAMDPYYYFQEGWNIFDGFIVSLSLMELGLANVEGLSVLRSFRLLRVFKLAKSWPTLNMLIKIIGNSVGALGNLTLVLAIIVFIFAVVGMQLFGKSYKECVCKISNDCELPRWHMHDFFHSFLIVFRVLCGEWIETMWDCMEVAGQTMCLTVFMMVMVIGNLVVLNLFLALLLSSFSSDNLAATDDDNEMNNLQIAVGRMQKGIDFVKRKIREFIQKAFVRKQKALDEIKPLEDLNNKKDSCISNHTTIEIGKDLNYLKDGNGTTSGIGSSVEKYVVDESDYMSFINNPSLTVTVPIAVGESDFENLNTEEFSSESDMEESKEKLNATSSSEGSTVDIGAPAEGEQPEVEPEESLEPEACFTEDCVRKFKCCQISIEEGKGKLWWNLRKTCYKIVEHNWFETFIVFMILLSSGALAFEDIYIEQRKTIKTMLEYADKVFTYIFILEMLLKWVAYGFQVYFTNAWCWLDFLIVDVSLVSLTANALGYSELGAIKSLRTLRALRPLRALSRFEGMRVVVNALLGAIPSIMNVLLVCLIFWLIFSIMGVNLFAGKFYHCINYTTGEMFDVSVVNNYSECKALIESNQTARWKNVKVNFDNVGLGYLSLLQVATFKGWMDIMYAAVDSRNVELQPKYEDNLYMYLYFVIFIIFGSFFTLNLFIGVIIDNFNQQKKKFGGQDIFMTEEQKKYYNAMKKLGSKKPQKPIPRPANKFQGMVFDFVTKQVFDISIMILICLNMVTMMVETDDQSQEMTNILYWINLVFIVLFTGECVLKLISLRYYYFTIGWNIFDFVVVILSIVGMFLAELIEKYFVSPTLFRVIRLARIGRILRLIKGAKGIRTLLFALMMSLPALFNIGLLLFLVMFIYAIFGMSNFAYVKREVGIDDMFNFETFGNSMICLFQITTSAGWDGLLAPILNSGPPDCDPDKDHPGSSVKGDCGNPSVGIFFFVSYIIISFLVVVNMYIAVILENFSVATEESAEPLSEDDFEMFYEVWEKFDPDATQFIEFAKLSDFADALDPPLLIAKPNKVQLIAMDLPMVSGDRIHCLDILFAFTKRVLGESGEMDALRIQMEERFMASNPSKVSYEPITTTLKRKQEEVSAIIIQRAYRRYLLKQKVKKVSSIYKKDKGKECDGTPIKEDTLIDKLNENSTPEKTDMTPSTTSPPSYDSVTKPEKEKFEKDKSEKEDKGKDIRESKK
UniProt Q15858, whole entry W1161R, looked up: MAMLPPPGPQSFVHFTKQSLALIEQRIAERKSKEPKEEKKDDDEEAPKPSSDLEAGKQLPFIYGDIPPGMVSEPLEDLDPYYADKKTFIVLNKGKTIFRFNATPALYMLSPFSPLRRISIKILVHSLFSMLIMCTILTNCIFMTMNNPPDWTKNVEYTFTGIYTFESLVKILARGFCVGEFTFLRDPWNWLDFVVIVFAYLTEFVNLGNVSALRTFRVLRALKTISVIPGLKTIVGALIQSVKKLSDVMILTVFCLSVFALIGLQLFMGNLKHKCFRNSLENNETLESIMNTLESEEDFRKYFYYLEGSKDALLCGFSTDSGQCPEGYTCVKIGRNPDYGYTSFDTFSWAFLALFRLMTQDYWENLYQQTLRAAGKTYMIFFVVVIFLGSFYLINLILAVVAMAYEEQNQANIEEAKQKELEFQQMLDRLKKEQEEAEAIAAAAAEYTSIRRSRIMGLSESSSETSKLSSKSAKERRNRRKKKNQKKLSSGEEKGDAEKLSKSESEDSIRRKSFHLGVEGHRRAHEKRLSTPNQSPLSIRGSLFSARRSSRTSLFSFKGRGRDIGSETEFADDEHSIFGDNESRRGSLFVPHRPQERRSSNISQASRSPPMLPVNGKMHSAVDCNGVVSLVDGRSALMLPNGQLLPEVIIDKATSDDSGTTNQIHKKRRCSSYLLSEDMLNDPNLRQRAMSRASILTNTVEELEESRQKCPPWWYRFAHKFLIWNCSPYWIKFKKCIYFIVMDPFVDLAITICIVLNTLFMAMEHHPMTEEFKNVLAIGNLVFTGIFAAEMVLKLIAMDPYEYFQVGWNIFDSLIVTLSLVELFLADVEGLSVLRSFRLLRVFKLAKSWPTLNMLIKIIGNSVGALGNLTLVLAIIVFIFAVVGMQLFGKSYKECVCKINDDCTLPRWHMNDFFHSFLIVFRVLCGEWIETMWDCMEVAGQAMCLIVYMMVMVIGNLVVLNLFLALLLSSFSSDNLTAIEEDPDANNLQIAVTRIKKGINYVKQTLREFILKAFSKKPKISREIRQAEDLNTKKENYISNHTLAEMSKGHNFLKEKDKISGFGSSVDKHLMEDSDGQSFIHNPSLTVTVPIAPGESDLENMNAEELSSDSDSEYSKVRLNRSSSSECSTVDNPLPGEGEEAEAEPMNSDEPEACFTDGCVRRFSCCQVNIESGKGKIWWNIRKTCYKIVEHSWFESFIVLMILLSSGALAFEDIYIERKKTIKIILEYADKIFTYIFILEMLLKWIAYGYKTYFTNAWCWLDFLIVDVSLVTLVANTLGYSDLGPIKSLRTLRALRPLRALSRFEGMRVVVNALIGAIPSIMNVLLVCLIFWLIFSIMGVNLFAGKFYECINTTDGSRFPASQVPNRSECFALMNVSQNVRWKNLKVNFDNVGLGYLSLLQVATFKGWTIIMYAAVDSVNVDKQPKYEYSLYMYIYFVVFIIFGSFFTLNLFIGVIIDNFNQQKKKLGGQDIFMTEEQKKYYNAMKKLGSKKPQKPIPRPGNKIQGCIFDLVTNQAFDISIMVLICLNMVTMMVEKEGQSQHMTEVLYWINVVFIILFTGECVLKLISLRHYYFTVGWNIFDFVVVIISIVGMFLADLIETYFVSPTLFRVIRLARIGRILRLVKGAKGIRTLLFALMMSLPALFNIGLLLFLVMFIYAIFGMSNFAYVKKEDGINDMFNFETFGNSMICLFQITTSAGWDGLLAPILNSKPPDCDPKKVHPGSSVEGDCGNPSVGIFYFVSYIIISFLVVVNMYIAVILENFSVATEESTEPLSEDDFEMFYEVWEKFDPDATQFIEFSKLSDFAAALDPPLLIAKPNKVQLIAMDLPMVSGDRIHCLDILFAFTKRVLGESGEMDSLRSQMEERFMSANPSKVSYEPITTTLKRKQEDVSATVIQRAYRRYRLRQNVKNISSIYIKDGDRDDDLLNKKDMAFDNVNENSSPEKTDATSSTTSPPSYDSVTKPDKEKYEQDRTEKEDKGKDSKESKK

Broadly, the IC50 is the point on the concentration scale where inhibition reaches its midpoint.

One assay has as its target Nav1.2 (Homo sapiens, UniProt Q99250). In words: IC50 (Nav1.2) µM. Conditions: read-out: IC50 (Nav1.2) µM.
A further assay deals with Nav1.7 (Homo sapiens, UniProt Q15858, W1161R). In words: IC50 (Nav1.7) µM. To be noted: read-out: IC50 (Nav1.7) µM.

`CC[C@H](C)[C@H](NC(=O)[C@H](CCC(N)=O)NC(=O)[C@H](Cc1ccc(O)cc1)NC(=O)[C@H](CCCCN)NC(=O)[C@@H]1CSSC[C@@H]2NC(=O)[C@H](CCC(N)=O)NC(=O)[C@H](CC(=O)O)NC(=O)[C@H](CC(N)=O)NC(=O)[C@H](CO)NC(=O)[C@@H]3CCCN3C(=O)[C@H](CC(N)=O)NC(=O)[C@@H]3CSSC[C@H](NC(=O)[C@H](C(C)C)NC(=O)[C@H](CC(C)C)NC(=O)[C@H](CCCCN)NC(=O)[C@H](CO)NC(=O)[C@H](CO)NC(=O)[C@H](CCCCN)NC(=O)[C@H](CSSC[C@H](NC(=O)[C@H](CC(N)=O)NC(=O)[C@@H]4CCCN4C(=O)CN)C(=O)N[C@@H](CC(C)C)C(=O)N[C@@H](CCCNC(=N)N)C(=O)N[C@@H]([C@@H](C)CC)C(=O)N[C@@H](Cc4ccccc4)C(=O)N[C@@H](CCCCN)C(=O)N[C@@H](C)C(=O)N3)NC2=O)C(=O)N[C@@H](CO)C(=O)N[C@@H](CCCNC(=N)N)C(=O)N[C@@H](CCCCN)C(=O)N[C@@H]([C@@H](C)O)C(=O)N[C@@H](CCCNC(=N)N)C(=O)N[C@@H](Cc2c[nH]c3ccccc23)C(=O)N1)C(=O)NCC(=O)N[C@@H](CCCCN)C(=O)O`: the IC50 on Nav1.2 and at Nav1.7 was 0.03 µM throughout.

In the case of `CC[C@H](C)[C@H](NC(=O)[C@H](CCC(N)=O)NC(=O)[C@H](Cc1ccc(O)cc1)NC(=O)[C@H](CCCCN)NC(=O)[C@@H]1CSSC[C@@H]2NC(=O)[C@H](CCC(N)=O)NC(=O)[C@H](CC(=O)O)NC(=O)[C@H](CC(N)=O)NC(=O)[C@H](CO)NC(=O)[C@@H]3CCCN3C(=O)[C@H](CC(N)=O)NC(=O)[C@@H]3CSSC[C@H](NC(=O)[C@H](C(C)C)NC(=O)[C@H](CC(C)C)NC(=O)[C@H](CCCCN)NC(=O)[C@H](CO)NC(=O)[C@H](CCC(N)=O)NC(=O)[C@H](CCCCN)NC(=O)[C@H](CSSC[C@H](NC(=O)[C@H](CCC(=O)O)NC(=O)[C@@H]4CCCN4C(=O)CN)C(=O)N[C@@H](CC(C)C)C(=O)N[C@@H](CCC(=O)O)C(=O)N[C@@H]([C@@H](C)CC)C(=O)N[C@@H](Cc4ccccc4)C(=O)N[C@@H](CCCCN)C(=O)N[C@@H](C)C(=O)N3)NC2=O)C(=O)N[C@@H](CO)C(=O)N[C@@H](CCCNC(=N)N)C(=O)N[C@@H](CCCCN)C(=O)N[C@@H]([C@@H](C)O)C(=O)N[C@@H](CCCNC(=N)N)C(=O)N[C@@H](Cc2c[nH]c3ccccc23)C(=O)N1)C(=O)NCC(=O)N[C@@H](CCCCN)C(=O)O`, the IC50 came out at 0.46 µM on Nav1.2 and 0.02 µM on Nav1.7.

In the case of `CC[C@H](C)[C@H](NC(=O)[C@H](CCC(N)=O)NC(=O)[C@H](Cc1ccc(O)cc1)NC(=O)[C@H](CCCCN)NC(=O)[C@@H]1CSSC[C@@H]2NC(=O)[C@H](CCC(N)=O)NC(=O)[C@H](CC(=O)O)NC(=O)[C@H](CC(N)=O)NC(=O)[C@H](CO)NC(=O)[C@@H]3CCCN3C(=O)[C@H](CC(N)=O)NC(=O)[C@@H]3CSSC[C@H](NC(=O)[C@H](C(C)C)NC(=O)[C@H](CC(C)C)NC(=O)[C@H](CCCCN)NC(=O)[C@H](CO)NC(=O)[C@H](CO)NC(=O)[C@H](CCCCN)NC(=O)[C@H](CSSC[C@H](NC(=O)[C@H](CCC(=O)O)NC(=O)[C@@H]4CCCN4C(=O)CN)C(=O)N[C@@H](CC(C)C)C(=O)N[C@@H](CCC(N)=O)C(=O)N[C@@H]([C@@H](C)CC)C(=O)N[C@@H](Cc4ccccc4)C(=O)N[C@@H](CCCCN)C(=O)N[C@@H](C)C(=O)N3)NC2=O)C(=O)N[C@@H](CO)C(=O)N[C@@H](CCCNC(=N)N)C(=O)N[C@@H](CCCCN)C(=O)N[C@@H]([C@@H](C)O)C(=O)N[C@@H](CCCNC(=N)N)C(=O)N[C@@H](Cc2c[nH]c3ccccc23)C(=O)N1)C(=O)NCC(=O)N[C@@H](CCCCN)C(=O)O`, the IC50 on Nav1.2 and at Nav1.7 was 0.02 µM each time.

As to `CC[C@H](C)[C@H](NC(=O)[C@H](CCC(N)=O)NC(=O)[C@H](Cc1ccc(O)cc1)NC(=O)[C@H](CCCCN)NC(=O)[C@@H]1CSSC[C@@H]2NC(=O)[C@H](CCC(N)=O)NC(=O)[C@H](CC(=O)O)NC(=O)[C@H](CC(N)=O)NC(=O)[C@H](CO)NC(=O)[C@@H]3CCCN3C(=O)[C@H](CC(N)=O)NC(=O)[C@@H]3CSSC[C@H](NC(=O)[C@H](C(C)C)NC(=O)[C@H](CC(C)C)NC(=O)[C@H](CCCCN)NC(=O)[C@H](CO)NC(=O)[C@H](CO)NC(=O)[C@H](CCCCN)NC(=O)[C@H](CSSC[C@H](NC(=O)[C@H](CCC(=O)O)NC(=O)[C@@H]4CCCN4C(=O)CN)C(=O)N[C@@H](CC(C)C)C(=O)N[C@@H](CCC(=O)O)C(=O)N[C@@H]([C@@H](C)CC)C(=O)N[C@@H](Cc4ccccc4)C(=O)N[C@@H](CCCCN)C(=O)N[C@@H](C)C(=O)N3)NC2=O)C(=O)N[C@@H](CO)C(=O)N[C@@H](CCCNC(=N)N)C(=O)N[C@@H](CCCCN)C(=O)N[C@@H]([C@@H](C)O)C(=O)N[C@@H](CCCNC(=N)N)C(=O)N[C@@H](CCCCN)C(=O)N1)C(=O)NCC(=O)N[C@@H](CCCCN)C(=O)O`, the IC50 at Nav1.2 is over 2.95 µM; on Nav1.7 it was 0.1 µM.

As to `CC[C@H](C)[C@H](NC(=O)[C@H](CCC(N)=O)NC(=O)[C@H](Cc1ccc(O)cc1)NC(=O)[C@H](CCCCN)NC(=O)[C@@H]1CSSC[C@@H]2NC(=O)[C@H](CCC(N)=O)NC(=O)[C@H](CC(=O)O)NC(=O)[C@H](CC(N)=O)NC(=O)[C@H](CO)NC(=O)[C@@H]3CCCN3C(=O)[C@H](CC(N)=O)NC(=O)[C@@H]3CSSC[C@H](NC(=O)[C@H](C(C)C)NC(=O)[C@H](CC(C)C)NC(=O)[C@H](CCCCN)NC(=O)[C@H](CO)NC(=O)[C@H](CO)NC(=O)[C@H](CCCCN)NC(=O)[C@H](CSSC[C@H](NC(=O)[C@H](CCC(=O)O)NC(=O)[C@@H]4CCCN4C(=O)CN)C(=O)N[C@@H](CC(C)C)C(=O)N[C@@H](CCC(=O)O)C(=O)N[C@@H]([C@@H](C)CC)C(=O)N[C@@H](Cc4ccccc4)C(=O)N[C@@H](CCCCN)C(=O)N[C@@H](C)C(=O)N3)NC2=O)C(=O)N[C@@H](CO)C(=O)NCC(=O)N[C@@H](CCCCN)C(=O)N[C@@H]([C@@H](C)O)C(=O)N[C@@H](CCCNC(=N)N)C(=O)N[C@@H](Cc2c[nH]c3ccccc23)C(=O)N1)C(=O)NCC(=O)N[C@@H](CCCCN)C(=O)O`, the IC50 on Nav1.2 was found to be 3.62 µM; on Nav1.7, 0.29 µM.

Consider `CC[C@H](C)[C@H](NC(=O)[C@H](CCC(N)=O)NC(=O)[C@H](Cc1ccc(O)cc1)NC(=O)[C@H](CCCCN)NC(=O)[C@@H]1CSSC[C@@H]2NC(=O)[C@H](CCC(N)=O)NC(=O)[C@H](CC(=O)O)NC(=O)[C@H](CC(N)=O)NC(=O)[C@H](CO)NC(=O)[C@@H]3CCCN3C(=O)[C@H](CC(N)=O)NC(=O)[C@@H]3CSSC[C@H](NC(=O)[C@H](C(C)C)NC(=O)[C@H](CC(C)C)NC(=O)[C@H](CCCCN)NC(=O)[C@H](CC(N)=O)NC(=O)[C@H](CO)NC(=O)[C@H](CCCCN)NC(=O)[C@H](CSSC[C@H](NC(=O)[C@H](CCC(=O)O)NC(=O)[C@@H]4CCCN4C(=O)CN)C(=O)N[C@@H](CC(C)C)C(=O)N[C@@H](CCC(=O)O)C(=O)N[C@@H]([C@@H](C)CC)C(=O)N[C@@H](Cc4ccccc4)C(=O)N[C@@H](CCCCN)C(=O)N[C@@H](C)C(=O)N3)NC2=O)C(=O)N[C@@H](CO)C(=O)N[C@@H](CCCNC(=N)N)C(=O)N[C@@H](CCCCN)C(=O)N[C@@H]([C@@H](C)O)C(=O)N[C@@H](CCCNC(=N)N)C(=O)N[C@@H](Cc2c[nH]c3ccccc23)C(=O)N1)C(=O)NCC(=O)N[C@@H](CCCCN)C(=O)O`, for which the half-maximal inhibitory concentration (IC50) amounted to 0.07 µM on Nav1.2 and 0.02 µM on Nav1.7.
